Compound potency records, mixed from different reports. Data source: NIAID ChemDB in PubChem.

All rows: growth or infection tests; organism: HIV-1; cell line: CEM + CEM-SS; read-out: fold resistance

Fold resistance: result on the changed form divided by that on wild type.

| structure | strain or isolate | mutations | read by | value |
|---|---|---|---|---|
| Cc1cn([C@H]2C[C@H](N=[N+]=[N-])[C@@H](CO)O2)c(=O)[nH]c1=O | NL4-3 | RT-V106I | cytopathic effect / XTT | 3 |
| Cc1cn([C@H]2C[C@H](N=[N+]=[N-])[C@@H](CO)O2)c(=O)[nH]c1=O | Dihydrocostatolide-resistant (RT-L100I) | RT-L100I | XTT | 0.6 |
| Cc1occc1C(=S)Nc1ccc(Cl)c(/C=N/OC(C)(C)C)c1 | UC040-R (RT-Y181C) | RT-Y181C | cytopathic effect / XTT | 4 |
| CCc1c(Sc2ccccn2)n(COCc2ccccc2)c(=O)[nH]c1=O | IIIB HEPT-resistant (IV) | RT-P236L | cytopathic effect / XTT | 62 |
| Cc1cn([C@H]2C[C@H](N=[N+]=[N-])[C@@H](CO)O2)c(=O)[nH]c1=O | CALO(RT-T139I) | RT-T139I | cytopathic effect / XTT | 0.2 |
| CC(=O)c1ccc(C)cc1NC(C(N)=O)c1c(Cl)cccc1Cl | Calanolide A-resistant (RT T139I) | RT-T139I | XTT | 2.33 |
| Cc1ccnc2c1NC(=O)c1cccnc1N2C1CC1 | NL4-3 | RT-K101E | cytopathic effect / XTT | 15 |
| O=[N+]([O-])c1ccccc1S(=O)(=O)c1ccccc1 | IIIB HEPT-resistant (IV) | RT-P236L | cytopathic effect / XTT | 0.8 |
| CCCc1cc(=O)oc2c3c(c4c(c12)OC(C)(C)C=C4)O[C@H](C)[C@@H](C)[C@@H]3O | IIIB HEPT-resistant (RT P236L) | RT-P236L | cytopathic effect / XTT | 2.4 |
| Cc1cn([C@H]2C[C@H](N=[N+]=[N-])[C@@H](CO)O2)c(=O)[nH]c1=O | IIIB HEPT-resistant (IV) | RT-P236L | cytopathic effect / XTT | 0.7 |
| CCc1c(Sc2ccccn2)n(COCc2ccccc2)c(=O)[nH]c1=O | NL4-3 | RT-V179D | cytopathic effect / XTT | 7.78 |
| Cc1cn([C@H]2C[C@H](N=[N+]=[N-])[C@@H](CO)O2)c(=O)[nH]c1=O | UC10-resistant (RT Y181C K101E) | RT-Y181C K101E | cytopathic effect / XTT | 20 |
| Cc1ccnc2c1NC(=O)c1cccnc1N2C1CC1 | NL4-3 | RT-V108I | XTT | 3 |
| CC1=C(C(=O)Nc2ccc(Cl)c(C(=O)OC(C)C)c2)SCCO1 | IIIB(THZ-R(I)) | RT-V108I | cytopathic effect / XTT | 15 |
| C/C=C/CSc1cc(NC(=S)c2ccsc2C)ccc1Cl | NL4-3 (RT L74V) | RT-L74V | cytopathic effect / XTT | 0.4 |
| Cc1cn([C@H]2C[C@H](N=[N+]=[N-])[C@@H](CO)O2)c(=O)[nH]c1=O | NL4-3 | RT-K103N | cytopathic effect / XTT | 53.3 |

The last 2 rows once more:

structure | strain or isolate | mutations | read by | value
C/C=C/CSc1cc(NC(=S)c2ccsc2C)ccc1Cl | NL4-3 (RT L74V) | RT-L74V | cytopathic effect / XTT | 0.4
Cc1cn([C@H]2C[C@H](N=[N+]=[N-])[C@@H](CO)O2)c(=O)[nH]c1=O | NL4-3 | RT-K103N | cytopathic effect / XTT | 53.3

Rows are shuffled and stem from different studies.